Pooled drug test results. Numbers come from NIAID ChemDB, via PubChem.

All rows: whole-cell or culture tests; species: HIV-1

ECn is the concentration giving n% inhibition of infection, replication or growth.

{"SMILES": "CC(=O)Nc1ccc(/C=C/c2ccc3ccc(C(=O)O)c(O)c3n2)cc1", "method": "ELISA", "cells": "CEM", "measure": "EC50", "value": ">47 µM"}
{"SMILES": "Nc1ccn([C@H]2CC[C@@H](CO)O2)c(=O)n1", "method": "cytopathic effect / MTT", "strain": "IIIB", "cells": "MT-4", "measure": "EC50", "value": "0.3 µg/mL"}
{"SMILES": "CC(C)(C)NC(=O)[C@@H]1CC2CCCCC2CN1C[C@@H](OC(=O)CCC(=O)O[C@H]1[C@@H](C2COC(C)(C)O2)OC2OC(C)(C)O[C@H]21)[C@H](Cc1ccccc1)NC(=O)[C@H](CC(N)=O)NC(=O)c1ccc2ccccc2n1.O=C(O)C(F)(F)F.O=C(O)C(F)(F)F", "method": "cytopathic effect / MTT", "strain": "IIIB", "cells": "MT-4", "measure": "EC50", "value": "0.109 µM"}
{"SMILES": "COCCNC(=O)[C@@H](NC(=O)[C@H](Cc1ccc(OC)c(OC)c1OC)C[C@H](O)[C@H](Cc1ccccc1)NC(=O)OC(C)(C)C)C(C)C", "method": "RT activity", "strain": "LAI", "cells": "PBL", "measure": "EC90", "value": "0.045 µM"}
{"SMILES": "CC(C)Oc1ccc(OC(C)C)c2c1-c1nc3nc(nc4[nH]c(nc5[nH]c(nc-2n1)c(SCCCC(=O)O)c5SCCCC(=O)O)c(SCCCC(=O)O)c4SCCCC(=O)O)C(SCCCC(=O)O)=C3SCCCC(=O)O", "method": "β-galactosidase", "strain": "IIIB", "cells": "MAGI", "measure": "EC50", "value": "<5 µg/mL"}
{"SMILES": "COc1ccnc(Nc2ccc(Cl)c(Oc3ccccc3C)c2)n1", "method": "cytopathic effect / MTT", "strain": "IIIB", "cells": "MT-2", "measure": "EC50", "value": ">13 µM"}
{"SMILES": "CC(C)[C@H](NC(=O)NCc1ccccn1)C(=O)N[C@@H](Cc1ccccc1)C(=O)C(F)(F)CCc1ccccc1", "method": "cytopathic effect", "cells": "MT-4", "measure": "EC50", "value": "7.6 µM"}
{"SMILES": "CC(C)(C)NC(=O)[C@@H]1CC2CCCCC2CN1C[C@@H](OC(=O)CCCCNC(=O)O[C@H]1[C@@H](C2COC(C)(C)O2)OC2OC(C)(C)O[C@H]21)[C@H](Cc1ccccc1)NC(=O)[C@H](CC(N)=O)NC(=O)c1ccc2ccccc2n1.O=C(O)C(F)(F)F.O=C(O)C(F)(F)F.O=C(O)C(F)(F)F.O=C(O)C(F)(F)F", "method": "cytopathic effect / MTT", "strain": "IIIB", "cells": "MT-4", "measure": "EC50", "value": "7.1 µM"}
{"SMILES": "CC(C)CN(C[C@@H](O)[C@H](Cc1ccccc1)NC(=O)[C@H](CC(N)=O)NC(=O)c1ccc2ccccc2n1)C(=O)NC(C)(C)C", "method": "p24", "strain": "NL4-3", "cells": "MT-4", "mutations": "PR-M46I L63P V82T", "measure": "EC95", "value": "0.4 µM"}
{"SMILES": "O=C1c2ccccc2C2(c3ccccc3)SCCN12", "method": "p24 / ELISA", "strain": "D148/86", "cells": "PBMC", "measure": "EC50", "value": "0.643 µM"}
{"SMILES": "CC[C@@]1(O)C(=O)OCc2c1cc1n(c2=O)Cc2cc3cc(O)ccc3nc2-1", "method": "p24 / antigen", "strain": "KM018", "cells": "PBMC", "measure": "EC50", "value": "0.0105 µg/mL"}
{"SMILES": "Cc1c(O)cccc1C(=O)N[C@@H](CSc1ccccc1)[C@@H](CN1C[C@H]2CCCC[C@H]2C[C@H]1C(=O)NC(C)(C)C)OC(=O)CCCCNC(=O)O[C@H]1[C@@H](C2COC(C)(C)O2)OC2OC(C)(C)O[C@H]21.O=C(O)C(F)(F)F.O=C(O)C(F)(F)F", "method": "cytopathic effect / MTT", "strain": "LAI", "cells": "CEM + CEM-SS", "measure": "EC50", "value": "8.2 µM"}
{"SMILES": "Cc1ccnc2c1NC(=O)c1cccnc1N2C1CC1", "method": "syncytia", "strain": "IIIB", "cells": "CEM", "mutations": "RT-E138K", "measure": "EC50", "value": "0.03 µM"}
{"SMILES": "NC(=O)C[C@H](NC(=O)OCc1ccccc1)C(=O)N[C@@H](Cc1ccccc1)C(=O)C(F)(F)CCc1ccccc1", "method": "cytopathic effect", "cells": "MT-4", "measure": "EC50", "value": "10.8 µM"}
{"SMILES": "CCCN1C(=O)N(Cc2ccccc2)S(=O)(=O)c2cscc21", "method": "syncytia", "strain": "IIIB", "cells": "CEM", "measure": "EC50", "value": "14.9 µM"}
{"SMILES": "C=C(Cn1cnc2c(=O)[nH]c(N)nc21)OCP(=O)(O)OP(=O)(O)OP(=O)(O)O", "method": "cytopathic effect / MTT", "cells": "MT-4", "measure": "EC50", "value": ">200 µM"}
{"SMILES": "Cc1cn([C@H]2C[C@H](N=[N+]=[N-])[C@@H](CO)O2)c(=O)[nH]c1=O", "method": "MTT", "strain": "IIIB", "cells": "MT-2", "measure": "EC50", "value": "0.024 µM"}
{"SMILES": "CC(C)=CCN1c2cc(Cl)cc3[nH]c(=S)n(c23)C[C@@H]1C", "cells": "MT-4", "mutations": "RT-K70R K101E", "measure": "EC50", "value": "<1.5 µM"}
{"SMILES": "Nc1ncnc2c1ncn2[C@H]1CC[C@@H](CO)O1", "method": "cytopathic effect / MTT", "cells": "MT-4", "measure": "EC50", "value": "10 µM"}
{"SMILES": "CC(C)(C)NC(=O)[C@@H]1CN(Cc2cccnc2)CCN1C[C@H](C[C@@H](Cc1ccccc1)C(=O)N[C@H]1c2ccccc2C[C@H]1O)OC(=O)CCC(=O)O[C@H]1[C@@H](C2COC(C)(C)O2)OC2OC(C)(C)O[C@H]21", "method": "cytopathic effect / MTT", "strain": "IIIB", "cells": "MT-4", "measure": "EC50", "value": "0.56 µM"}
{"SMILES": "O=C1N(Cc2ccccc2)c2cscc2S(=O)(=O)N1Cc1ccccc1", "method": "syncytia", "strain": "IIIB", "cells": "CEM", "mutations": "RT-K103N", "measure": "EC50", "value": ">10 µM"}
{"SMILES": "Cc1ccc(C(O)c2cc(Cl)ccc2OCC(=O)Nc2ccc(S(N)(=O)=O)cc2C)c(C)c1", "cells": "C8166", "measure": "EC50", "value": "28.5 µM"}
{"SMILES": "COc1nc(Cl)nc(Nc2ccc(Cl)c(OCC=C(C)C)c2)n1", "method": "cytopathic effect / MTT", "strain": "IIIB", "cells": "MT-2", "measure": "EC50", "value": ">26 µM"}
{"SMILES": "c1cc(CN2CCCNCCNCCCNCC2)ccc1CN1CCCNCCNCCCNCC1", "method": "p24", "strain": "IIIB", "cells": "PBMC", "measure": "EC50", "value": "0.01 µg/mL"}
{"SMILES": "CN1C(=O)Nc2cscc2S1(=O)=O", "method": "cytopathic effect / MTT", "strain": "IIIB", "cells": "MT-4", "measure": "EC50", "value": ">99.8 µM"}
{"SMILES": "Nc1nc2c(ncn2[C@H]2CC[C@@H](CO)O2)c(=O)[nH]1", "method": "cytopathic effect / MTT", "cells": "MT-4", "measure": "EC50", "value": "0.11 µM"}
{"SMILES": "O=C1Nc2cscc2S(=O)(=O)N1c1ccc(Cl)cc1", "method": "cytopathic effect / MTT", "strain": "IIIB", "cells": "MT-4", "measure": "EC50", "value": ">266.5 µM"}
{"SMILES": "CCc1cc(NCc2nc3c(Cl)ccc(Cl)c3o2)c(=O)[nH]c1C", "method": "syncytia", "strain": "IIIB", "cells": "HT4lacZ-1/IIIB + HT4 LacZ-1", "measure": "EC50", "value": "0.02 µM"}
{"SMILES": "CC(C)c1nc(CN(C)C(=O)N[C@H](C(=O)N[C@@H](Cc2ccccc2)C[C@H](O)[C@H](Cc2ccccc2)NC(=O)OCc2cncs2)C(C)C)cs1", "method": "RT activity", "strain": "MN", "cells": "MT-2", "measure": "EC90", "value": "0.083 µM"}
{"SMILES": "CCN1C(=O)N(Cc2ccccc2)S(=O)(=O)c2cscc21", "method": "syncytia", "strain": "IIIB", "cells": "CEM", "mutations": "RT-K103N", "measure": "EC50", "value": ">310 µM"}
{"SMILES": "CC(C)(C)NC(=O)[C@@H]1C[C@@H]2CCCC[C@@H]2CN1C[C@@H](O)[C@H](Cc1ccccc1)NC(=O)[C@H](CC(N)=O)NC(=O)c1ccc2ccccc2n1", "method": "cytopathic effect / MTT", "strain": "IIIB", "cells": "MT-4", "measure": "EC50", "value": "0.018 µM"}
{"SMILES": "CCN(C(=O)OCc1ccccc1)C1CCN(CCC(CO)(CN(C)S(=O)(=O)c2ccccc2)c2ccccc2)CC1", "method": "p24", "strain": "YU-2 (M-tropic)", "cells": "PBMC", "measure": "EC50", "value": "<0.14 µM"}
{"SMILES": "O=C1N(Cc2ccc(CO)cc2)[C@H](Cc2ccccc2)[C@H](O)[C@@H](O)[C@@H](Cc2ccccc2)N1Cc1ccc(CO)cc1", "method": "p24", "strain": "NL4-3", "cells": "MT-4", "mutations": "PR-M46I", "measure": "EC50", "value": "<0.2 µM"}
{"SMILES": "CN1C(=O)N(Cc2ccccc2)S(=O)(=O)c2cscc21", "method": "syncytia", "strain": "IIIB", "cells": "CEM", "mutations": "RT-V106A", "measure": "EC50", "value": ">324 µM"}
{"SMILES": "C[C@H](Cn1cnc2c(=O)[nH]c(N)nc21)OCP(=O)(O)O", "method": "cytopathic effect / MTT", "cells": "MT-4", "measure": "EC50", "value": "3 µM"}
{"SMILES": "CC(C)[C@H](NC(=O)CNC(=O)OCc1ccccc1)C(=O)N[C@@H](Cc1ccccc1)C(=O)C(F)(F)CCc1ccccc1", "method": "cytopathic effect", "cells": "MT-4", "measure": "EC50", "value": "1.9 µM"}
{"SMILES": "CC(C)(C)NC(=O)c1ccccc1CCC(O)Cc1ccc2ccccc2c1C(=O)NC(C)(C)C", "method": "cytopathic effect / MTT", "strain": "RF", "cells": "CEM + CEM-SS", "measure": "EC50", "value": ">60 µM"}
{"SMILES": "CCN(C(=O)OCc1ccccc1)C1CCN(CCC(CN(C)S(=O)(=O)c2ccccc2)c2ccccc2)CC1", "method": "p24", "strain": "YU-2 (M-tropic)", "cells": "PBMC", "measure": "EC50", "value": "<12.5 µM"}
{"SMILES": "COc1ccc(OP(=O)(OC[C@H]2O[C@@H](n3cc(C)c(=O)[nH]c3=O)C[C@@H]2N=[N+]=[N-])Oc2ccc(OC)cc2)cc1", "method": "ELISA", "strain": "IIIB", "cells": "C8166", "measure": "EC50", "value": "1.6 µM"}
{"SMILES": "Oc1ccc(/C=C/c2ccc3c(Cl)cc(Cl)c(O)c3n2)cc1O", "method": "ELISA", "cells": "CEM", "measure": "EC50", "value": ">17 µM"}
{"SMILES": "Cc1cnn(Cc2cc3c(cc2F)C(C#CC2CC2)(C(C)(F)F)NC(=O)N3)c(=O)c1", "method": "GFP", "cells": "PBMC", "setting": "pseudotyped", "measure": "EC50", "value": "0.069 µM"}
{"SMILES": "Cc1cn([C@H]2C[C@H](N=[N+]=[N-])[C@@H](COP(=O)(Oc3ccccc3)Oc3ccccc3)O2)c(=O)[nH]c1=O", "method": "ELISA", "strain": "GB8)/1(IIIB", "cells": "JM", "measure": "EC50", "value": "40 µM"}
{"SMILES": "Nc1ncnc2c1ncn2CCOCP(=O)(O)O", "method": "cytopathic effect / MTT", "cells": "MT-4", "measure": "EC50", "value": "4.8 µM"}
{"SMILES": "Cc1cn([C@H]2C[C@H](N=[N+]=[N-])[C@@H](COP(=O)(Oc3ccc(I)cc3)Oc3ccc(I)cc3)O2)c(=O)[nH]c1=O", "method": "ELISA", "strain": "IIIB", "cells": "C8166", "measure": "EC50", "value": "0.16 µM"}
{"SMILES": "O=C1Nc2cscc2S(=O)(=O)N1c1cccc(Cl)c1", "method": "cytopathic effect / MTT", "strain": "IIIB", "cells": "MT-4", "measure": "EC50", "value": ">110.7 µM"}
{"SMILES": "CC(C)(C)NC(=O)[C@@H]1C[C@@H]2CCCC[C@@H]2CN1C[C@@H](O)[C@H](Cc1ccccc1)NC(=O)[C@H](CC(N)=O)NC(=O)c1ccc2ccccc2n1", "method": "p24", "strain": "BaL", "cells": "Primary monocytes + Lymphocytes", "measure": "EC50", "value": "0.0049 µM"}
{"SMILES": "Cc1cn([C@H]2C[C@H](N=[N+]=[N-])[C@@H](CO)O2)c(=O)[nH]c1=O", "method": "ELISA", "strain": "IIIB", "cells": "C8166", "measure": "EC50", "value": "0.008 µM"}

Again, the opening 4 rows:

{"SMILES": "CC(=O)Nc1ccc(/C=C/c2ccc3ccc(C(=O)O)c(O)c3n2)cc1", "method": "ELISA", "cells": "CEM", "measure": "EC50", "value": ">47 µM"}
{"SMILES": "Nc1ccn([C@H]2CC[C@@H](CO)O2)c(=O)n1", "method": "cytopathic effect / MTT", "strain": "IIIB", "cells": "MT-4", "measure": "EC50", "value": "0.3 µg/mL"}
{"SMILES": "CC(C)(C)NC(=O)[C@@H]1CC2CCCCC2CN1C[C@@H](OC(=O)CCC(=O)O[C@H]1[C@@H](C2COC(C)(C)O2)OC2OC(C)(C)O[C@H]21)[C@H](Cc1ccccc1)NC(=O)[C@H](CC(N)=O)NC(=O)c1ccc2ccccc2n1.O=C(O)C(F)(F)F.O=C(O)C(F)(F)F", "method": "cytopathic effect / MTT", "strain": "IIIB", "cells": "MT-4", "measure": "EC50", "value": "0.109 µM"}
{"SMILES": "COCCNC(=O)[C@@H](NC(=O)[C@H](Cc1ccc(OC)c(OC)c1OC)C[C@H](O)[C@H](Cc1ccccc1)NC(=O)OC(C)(C)C)C(C)C", "method": "RT activity", "strain": "LAI", "cells": "PBL", "measure": "EC90", "value": "0.045 µM"}

Neighbouring rows are from separate reports.